Compound potency records, mixed from different reports. Data source: NIAID ChemDB in PubChem.

Common to all: target-level tests

An empty or dashed field is not shown. Fold resistance has wild type as its base. Rows are shuffled and stem from different studies. ICn is the concentration giving n% inhibition. Inhibition is in % at the dose shown (toxicity tests: loss of growth or viability).

SMILES,mutations,target,organism,strain,method,dose,read-out,value
O=c1ccn(C2CCCCC2)c(=O)[nH]1,-,Uracil phosphoribosyltransferase,Toxoplasma gondii,RH,-,2000 µM,inhibition,<10%
O=C(O)C(F)(F)P(=O)(O)O,-,DNA polymerase,Herpes simplex virus 1,-,-,100 µM,inhibition,62%
O=C(CN1C(=O)SC(=Cc2ccccc2)C1=O)N1CCN(c2ccccc2)CC1,-,Falcipain-2,Plasmodium falciparum,-,fluorescence,-,IC50,38.8 µM
S=c1cc[nH]c(=S)[nH]1,-,Uracil phosphoribosyltransferase,Toxoplasma gondii,RH,-,-,Ki,250 µM
Cc1nc(NS(=O)(=O)c2ccc(N)cc2)oc1C,-,DHPS,Pneumocystis carinii,-,-,-,IC50,0.089 µM
CC(F)(C(=O)O)P(=O)(O)O,-,DNA polymerase,Herpes simplex virus 1,-,-,-,IC50,>100 µM
CO[P@](=O)(c1cc(C)cc(/C=C/C#N)c1)c1c(C(N)=O)[nH]c2ccc(Cl)cc12,-,Reverse transcriptase,HIV,-,-,-,IC50,<0.343 µM
O=C(CN1C(=O)SC(=Cc2ccc(Cl)cc2Cl)C1=O)N1CCN(c2ccccc2)CC1,-,Falcipain-2,Plasmodium falciparum,-,fluorescence,-,IC50,>50 µM
O=C(O)C(Cl)(Cl)P(=O)(O)O,-,DNA polymerase,Epstein-Barr virus,-,-,100 µM,inhibition,32%
c1ccc(C2SCc3nc4ccccc4n32)cc1,RT-L100I,Reverse transcriptase,HIV-1,-,-,-,fold resistance,~2
O=C(/C=C/c1ccccc1Cl)Nc1nnc(NCCc2ccccc2)s1,-,Polymerase,Human cytomegalovirus,-,-,-,IC50,>25 µM
Cc1cc(SC2=C(O)C[C@@](CCc3ccc(O)cc3)(C(C)C)OC2=O)c(C(C)(C)C)cc1CO,-,Cytochrome P450 2D6,-,-,-,10 µM,inhibition,9%
O=C(O)C(F)(Cl)P(=O)(O)O,-,DNA polymerase,Herpes simplex virus 1,-,-,-,IC50,>100 µM
CCC(CC)Nc1cc(C(=O)O)ccc1N1C(=O)CCC1(CN)CO,-,Neuraminidase,Influenza A virus,Subtype N1,-,-,IC50,0.88 µM
CC(CCC[NH+](C)C)C1CC[C@@]2(C)C3=C(CCC12C)C1(C)CCC(O)C(C)(C)C1CC3,-,C24-methyltransferase,Candida albicans,-,-,-,Ki,0.059 µM
O=P(O)(O)C(Cl)(Br)P(=O)(O)O,-,DNA polymerase,Epstein-Barr virus,-,-,-,IC50,>100 µM
CCC(CC)[C@H](NC(C)=O)[C@@H]1[C@H](O)[C@@H](C(=O)O)C[C@H]1N=C(N)N,-,Influenza virus neuraminidase,Influenza A virus,WILD TYPE (274),-,-,IC50,0.0005 µM
NNc1ccc(C(=O)NS(=O)(=O)c2ccc(N)cc2)cc1,-,DHPS,Pneumocystis carinii,-,-,-,IC50,>10 µM
CCC(CC)Nc1cc(C(=O)O)ccc1N1C(=O)CCC1(CO)CCN,-,Neuraminidase,Influenza A virus,Subtype N1,-,-,IC50,180 µM
O=c1cc[nH]c(=S)[nH]1,-,Uracil phosphoribosyltransferase,Toxoplasma gondii,RH,-,-,Ki,4400 µM
Cc1cn([C@@H]2O[C@H](CO[Si](C)(C)C(C)(C)C)[C@@]3(OS(=O)(=O)C=C3N)[C@H]2O[Si](C)(C)C(C)(C)C)c(=O)[nH]c1=O,RT-P95A,Reverse transcriptase,HIV,-,nucleotide incorporation / radiometric,-,IC50,0.9 µM
Nc1ccc(S(=O)(=O)Nc2ccc(Cl)nn2)cc1,-,DHPS,Pneumocystis carinii,-,-,-,IC50,0.018 µM
O=C(/C=C/c1ccccc1Cl)Nc1nnc(NC2CCCc3ccccc32)s1,-,Polymerase,Human cytomegalovirus,-,-,-,IC50,>25 µM
Cl.O=c1nccc[nH]1,-,Uracil phosphoribosyltransferase,Toxoplasma gondii,RH,-,-,IC50,>2000 µM
CC[C@H]1C(=O)Nc2ccc(F)cc2N1C(=O)OC(C)C,RT-N137H,Reverse transcriptase,HIV,-,nucleotide incorporation / radiometric,-,fold resistance,1
Cc1cc(=O)[nH]c(=S)[nH]1,-,Uracil phosphoribosyltransferase,Toxoplasma gondii,RH,-,-,Ki,1900 µM
CC(CCC1[NH2+]C1(C)C)C1CC[C@@]2(C)C3=C(CCC12C)C1(C)CCC(O)C(C)(C)C1CC3,-,C24-methyltransferase,Candida albicans,-,-,-,IC50,5 µM
O=C(O)C(Br)P(=O)(O)O,-,DNA polymerase,Epstein-Barr virus,-,-,100 µM,inhibition,85%
N#Cc1ccc(C(=O)Nc2nnc(NCc3ccc(Cl)c(Cl)c3)s2)cc1,-,Polymerase,Human cytomegalovirus,-,-,-,IC50,<25 µM
NC(=S)NS(=O)(=O)c1ccc(N)cc1,-,DHPS,Pneumocystis carinii,-,-,-,Ki,0.0165 µM
Cn1cc(Br)c(=O)[nH]c1=O,-,Uracil phosphoribosyltransferase,Toxoplasma gondii,RH,-,-,IC50,>2000 µM
CCSCCNc1nnc(NC(=O)/C=C/c2ccccc2)s1,-,Polymerase,Human cytomegalovirus,-,-,-,IC50,>25 µM
C[C@H](CCC1NC1(C)C)[C@H]1CC[C@@]2(C)C3=C(CC[C@]12C)[C@@]1(C)CC[C@H](O)C(C)(C)[C@@H]1CC3,-,C24-methyltransferase,Candida albicans,-,-,-,Ki,0.011 µM
COc1cc(OC)c(C=C2SC(=O)N(CC(=O)N3CCN(C)CC3)C2=O)c(OC)c1,-,Falcipain-2,Plasmodium falciparum,-,fluorescence,-,IC50,>50 µM
Nc1nccnc1C(=O)O,-,Uracil phosphoribosyltransferase,Toxoplasma gondii,RH,-,2000 µM,inhibition,<5%
O=C(O)C(Br)(Br)P(=O)(O)O,-,DNA polymerase,Epstein-Barr virus,-,-,100 µM,inhibition,34%
Cc1noc(NS(=O)(=O)c2ccc(N)cc2)c1C,-,DHPS,Pneumocystis carinii,-,-,0.05 µM,inhibition,39.2%
CC(Br)(C(=O)O)P(=O)(O)O,-,DNA polymerase,Herpes simplex virus 1,-,-,-,IC50,>100 µM
CCSCCNc1nnc(NC(=O)c2ccc(Cl)c(Cl)c2)s1,-,Polymerase,Human cytomegalovirus,-,-,-,IC50,>25 µM
COc1cc(OC)c(C=C2SC(=O)N(CC(=O)N3CCN(C(=O)c4ccccc4)CC3)C2=O)c(OC)c1,-,Falcipain-2,Plasmodium falciparum,-,fluorescence,-,IC50,33.75 µM
O=C(O)c1cc(=O)[nH]c(=O)[nH]1,-,Uracil phosphoribosyltransferase,Toxoplasma gondii,RH,-,2000 µM,inhibition,<5%

Again, the opening 5 rows:

SMILES,mutations,target,organism,strain,method,dose,read-out,value
O=c1ccn(C2CCCCC2)c(=O)[nH]1,-,Uracil phosphoribosyltransferase,Toxoplasma gondii,RH,-,2000 µM,inhibition,<10%
O=C(O)C(F)(F)P(=O)(O)O,-,DNA polymerase,Herpes simplex virus 1,-,-,100 µM,inhibition,62%
O=C(CN1C(=O)SC(=Cc2ccccc2)C1=O)N1CCN(c2ccccc2)CC1,-,Falcipain-2,Plasmodium falciparum,-,fluorescence,-,IC50,38.8 µM
S=c1cc[nH]c(=S)[nH]1,-,Uracil phosphoribosyltransferase,Toxoplasma gondii,RH,-,-,Ki,250 µM
Cc1nc(NS(=O)(=O)c2ccc(N)cc2)oc1C,-,DHPS,Pneumocystis carinii,-,-,-,IC50,0.089 µM